Pooled drug test results. Numbers come from NIAID ChemDB, via PubChem.

All rows: tests in culture; organism: Varicella zoster virus; read by: plaque count; measure: EC50

Conditions beyond the fields shown may differ between rows. ECn: concentration that inhibits the pathogen or its effect by n%. a–b is a range or a potency band.

COC(c1cn([C@H]2C[C@H](O)[C@@H](CO)O2)c(=O)[nH]c1=O)C(Cl)I ; strain: ELLEN ; cell line: HFF ; result: 155 µM
CCCCCCCCc1cc2cn([C@H]3C[C@H](O)[C@@H](CO)O3)c(=O)nc2[nH]1 ; strain: YS ; cell line: HEL ; result: 0.38 µM
O=c1[nH]c(=O)n([C@H]2C[C@H](O)[C@@H](CO[P@]3(=O)OCc4cccc(-c5ccccc5)c4O3)O2)cc1/C=C/Br ; strain: OKA ; cell line: HELF ; result: 0.017 µg/mL
O=c1nc2oc(CCCCOc3ccccc3)cc2cn1[C@H]1C[C@H](O)[C@@H](CO)O1 ; strain: TK+/YS ; cell line: HEL ; result: 13 µM
Nc1nc2c(ncn2C[C@]2(CO)C[C@H]2CO)c(=O)[nH]1 ; strain: Kawaguchi ; cell line: HEL ; result: 0.027 µg/mL
OC[C@H]1O[C@H](c2cc(I)c(F)cc2F)C[C@@H]1O ; strain: TK+/YS ; cell line: HEL ; result: >200 µM
Nc1nc(=O)n([C@@H]2O[C@H](CO)[C@@H](O)[C@@H]2F)cc1I ; strain: 07/1 (TK-) ; cell line: HEL ; result: 13.8 µM
Cc1c(Br)cc(Br)c2ncc(CSCc3ccc(Cl)cc3Cl)n12 ; strain: 07/1 (TK-) ; cell line: HEL ; result: 3.1 µg/mL
O=c1[nH]cnc2c1ncn2OCCOCP(=O)(O)O ; strain: ELLEN ; cell line: MRC-5 ; result: >340 µg/mL
Nc1nc2c(ncn2CCC(CO)CO)c(=O)[nH]1 ; strain: 5 isolates ; cell line: MRC-5 ; result: 3.1 µg/mL
CCCCCCCCCCCCc1cc2cn([C@H]3C[C@H](O)[C@@H](CO)O3)c(=O)nc2o1 ; strain: OKA ; cell line: HEL ; result: 0.8 µM
Nc1nc(N)c2ncn(OCC(CO)OCP(=O)(O)O)c2n1 ; strain: ELLEN ; cell line: MRC-5 ; result: >300 µg/mL
O=c1[nH]c(=O)n([C@H]2C[C@H](O)[C@@H](CO)O2)cc1C(O)C(Br)Br ; strain: ELLEN ; cell line: HFF ; result: 6.3 µM
CC1(C)[C@@H](CCO)C[C@H]1n1nnc2c(Cl)nc(N)nc21 ; strain: (TK-)07/1 ; cell line: HEL ; result: >20 µg/mL
O=c1[nH]c(=O)n([C@H]2C[C@H](O)[C@@H](COP3(=O)OCc4c(ccc5ccccc45)O3)O2)cc1/C=C/Br ; strain: OKA ; cell line: HELF ; result: 0.014 µg/mL
C[C@H]1[C@H](O)[C@@H](CO)O[C@H]1n1cc(Br)c(=O)[nH]c1=O ; strain: CAQU ; cell line: MRC-5 ; result: 10.75 µg/mL
Cc1c(Br)cc(Br)c2ncc(CSCCc3ccccc3)n12 ; strain: YS/R (TK-) ; cell line: HEL ; result: 2.6 µg/mL
O=[N+]([O-])c1cccc(-c2cc3ccccn3c2)c1 ; strain: G-31 ; cell line: MRC-5 ; result: >25 µM
Nc1nc2c(ncn2OCC2COP(=O)(O)CO2)c(=O)[nH]1 ; strain: ELLEN ; cell line: MRC-5 ; result: 26 µg/mL
Cc1c(Br)cc(Br)c2ncc(CSCc3ccccc3)n12 ; strain: OKA (TK+) ; cell line: HEL ; result: >50 µg/mL
Nc1nc2c(ncn2COCCO)c(=O)[nH]1 ; cell line: HFF ; result: 0.7 µM
O=c1nc2oc(CCOC3CCCCO3)cc2cn1[C@H]1C[C@H](O)[C@@H](CO)O1 ; strain: 07/1 (TK-) ; cell line: HEL ; result: >40 µM
CCOc1ccc(-c2cc3cn([C@H]4C[C@H](O)[C@@H](CO)O4)c(=O)nc3o2)cc1 ; strain: YS ; cell line: HEL ; result: 0.012 µM
CCCCCCCCc1cc2cn([C@H]3C[C@H](O)[C@@H](CO)O3)c(=O)nc2o1 ; strain: OKA ; cell line: HEL ; result: 0.0008 µM
O=c1[nH]c(=O)n([C@H]2C[C@H](O)[C@@H](COP3(=O)OCc4cccc(-c5ccccc5)c4O3)O2)cc1/C=C/Br ; strain: OKA ; cell line: HELF ; result: 0.025 µg/mL
CCCCCOc1ccc(-c2cc3cn([C@H]4C[C@H](O)[C@@H](CO)O4)c(=O)nc3o2)cc1 ; strain: OKA ; cell line: HEL ; result: 0.001 µM
CC1(C)[C@@H](CCO)C[C@H]1n1cnc2c(N)ncnc21 ; strain: (TK-)/YS/R ; cell line: HEL ; result: >20 µg/mL
OC[C@H]1O[C@@H](n2c(Br)nc3cc(Cl)c(Cl)cc32)[C@H](O)[C@@H]1O ; cell line: HFF ; result: >50 µM
COC(c1cn([C@H]2C[C@H](O)[C@@H](CO)O2)c(=O)[nH]c1=O)C(Cl)Cl ; strain: ELLEN ; cell line: HFF ; result: 13.8 µM
CCCCCCCc1cc2cn([C@H]3C[C@H](O)[C@@H](CO)O3)c(=O)nc2o1 ; strain: OKA ; cell line: HEL ; result: 0.12 µM
C[C@H]1[C@H](O)[C@@H](CO)O[C@H]1n1cc(Br)c(N)nc1=O ; strain: CAQU ; cell line: MRC-5 ; result: 12 µg/mL
COC(c1cn([C@H]2C[C@H](O)[C@@H](CO)O2)c(=O)[nH]c1=O)C(Cl)Br ; strain: ELLEN ; cell line: HFF ; result: 7.5 µM
O=C(O)CP(=O)(O)O ; strain: YS (TK+) ; cell line: HEL ; result: 35 µM
Nc1nc2c(ncn2[C@@H]2C[C@H](CO)[C@H]2O)c(=O)[nH]1 ; result: 2–4 µM
O=c1nc2oc(CCCC3OCCCO3)cc2cn1[C@H]1C[C@H](O)[C@@H](CO)O1 ; strain: OKA ; cell line: HEL ; result: >200 µM
Cc1ccc(OCCCc2cc3cn([C@H]4C[C@H](O)[C@@H](CO)O4)c(=O)nc3o2)cc1 ; strain: (TK-)/YS/R ; cell line: HEL ; result: >50 µM
C[C@@H](NC(=O)C1(Cc2ccccc2)CCN1C(=O)OCc1ccccc1)C(=O)OC(C)(C)C ; strain: OKA (TK+) ; cell line: HEL ; result: >16 µM
O=c1[nH]c(=O)n([C@@H]2O[C@H](CO)[C@@H](O)[C@@H]2O)cc1/C=C/Br ; strain: 07/1 (TK-) ; cell line: HEL ; result: >57 µM
O=C(NCc1ccc(Cl)cc1)c1c[nH]c2ccc(C#CCO)cc2c1=O ; strain: CAR ; result: 0.2 µM
Cc1ccc(CSCc2cnc3c(Br)cc(Br)c(C)n23)cc1 ; strain: OKA (TK+) ; cell line: HEL ; result: >20 µg/mL
C=Cc1cc([C@H]2C[C@H](O)[C@@H](CO)O2)c(F)cc1F ; strain: OKA ; cell line: HEL ; result: >200 µM
Nc1nc2c(ncn2CC(CO)OCP(=O)(O)O)c(=O)[nH]1 ; cell line: WI-38 ; result: 0.2 µM
COc1cc(F)c([C@H]2C[C@H](O)[C@@H](CO)O2)cc1[N+](=O)[O-] ; strain: (TK-)07/1 ; cell line: HEL ; result: >200 µM
OC[C@H]1O[C@@H](c2cc(C#CI)c(F)cc2F)C[C@@H]1O ; strain: 07/1 (TK-) ; cell line: HEL ; result: >20 µM
Cc1c(Br)cc(Br)c2ncc(CSCc3ccc(Cl)c(Cl)c3)n12 ; strain: OKA (TK+) ; cell line: HEL ; result: >5 µg/mL
CCCCCCCOc1ccc(-c2cc3cn([C@H]4C[C@H](O)[C@@H](CO)O4)c(=O)nc3o2)cc1 ; strain: OKA ; cell line: HEL ; result: 0.006 µM
O=c1[nH]cnc2c1ncn2OCCOCP(=O)(O)O ; strain: ELLEN ; cell line: MRC-5 ; result: >340 µM
C[C@H]1[C@H](O)[C@@H](CO)O[C@H]1n1cc(I)c(N)nc1=O ; strain: CAQU ; cell line: MRC-5 ; result: 0.95 µg/mL
CCc1ccc(OCCCc2cc3cn([C@H]4C[C@H](O)[C@@H](CO)O4)c(=O)nc3o2)cc1 ; strain: (TK+)/OKA ; cell line: HEL ; result: 3.2 µM
CCCCCCOC(=O)c1ccc2cc(-c3ccccc3)cn2c1 ; strain: G-31 ; cell line: MRC-5 ; result: >40 µM
Nc1nc(=O)n([C@H]2C[C@H](O)[C@@H](CO)O2)cc1/C=C/Cl ; strain: YS (TK+) ; cell line: HEL ; result: 0.054 µM
O=c1[nH]c(=O)n([C@@H]2O[C@H](CO)[C@@H](O)[C@@H]2O)cc1/C=C/Br ; strain: OKA ; cell line: CCRF-HSV-B ; result: 0.013 µg/mL
CCCCCOc1ccc(-c2cc3cn([C@H]4C[C@H](O)[C@@H](CO)O4)c(=O)nc3o2)cc1 ; strain: OKA ; cell line: HEL ; result: 0.001 µM
Nc1nc2c(ncn2CCC(CO)CO)c(=O)[nH]1 ; strain: 07/1 (TK-) ; cell line: HEL ; result: 98.8 µM
CC1(C)[C@@H](CCO)C[C@H]1n1cnc2c(N)nc(N)nc21 ; strain: (TK+)/OKA ; cell line: HEL ; result: >50 µg/mL
Nc1cc([C@H]2C[C@H](O)[C@@H](CO)O2)c(F)cc1F ; strain: (TK-)07/1 ; cell line: HEL ; result: >200 µM
CCCOc1ccc(-c2cc3cn([C@H]4C[C@H](O)[C@@H](CO)O4)c(=O)nc3o2)cc1 ; strain: YS ; cell line: HEL ; result: 0.0025 µM
CCCCCCCCCCc1cc2cn([C@H]3C[C@H](O)[C@@H](CO)O3)c(=O)nc2o1 ; strain: YS/R (TK-) ; cell line: HEL ; result: >50 µM
C#CCCCCCCc1cc2cn([C@H]3C[C@H](O)[C@@H](CO)O3)c(=O)nc2o1 ; strain: OKA ; cell line: HEL ; result: 79 µM
CC#Cc1cn([C@@H]2O[C@H](CO)[C@@H](O)[C@@H]2O)c(=O)[nH]c1=O ; strain: YS/R (TK-) ; cell line: HEL ; result: >177 µM
COC(c1cn([C@H]2C[C@H](O)[C@@H](CO)O2)c(=O)[nH]c1=O)C(I)I ; strain: ELLEN ; cell line: HFF ; result: 91 µM
C[C@H]1[C@H](O)[C@@H](CO)O[C@H]1n1cc(I)c(=O)[nH]c1=O ; strain: Kanno-Kohmura ; cell line: MRC-5 ; result: >50 µg/mL
Cc1cn([C@@H]2O[C@H](CO)[C@H]2CO)c(=O)[nH]c1=O ; strain: DKG ; cell line: HFF ; result: 0.03 µg/mL
CCOC(=O)CC1OP(=O)(OC[C@H]2O[C@@H](n3cc(/C=C/Br)c(=O)[nH]c3=O)C[C@@H]2O)Oc2cccc(Cl)c21 ; strain: OKA ; cell line: HELF ; result: 0.006 µg/mL
Nc1nc2c(ncn2COC(CO)CO)c(=O)[nH]1 ; strain: YS (TK+) ; cell line: HEL ; result: 2.05 µM
Nc1nc(N)c2ncn(OCCOCP(=O)(O)O)c2n1 ; strain: ELLEN ; cell line: MRC-5 ; result: 3.9 µM
O=c1[nH]c(=O)n([C@H]2C[C@H](O)[C@@H](CO)O2)cc1/C=C/Br ; strain: (TK-)/YS/R ; cell line: HEL ; result: 150 µM
OC[C@H]1O[C@@H](c2cc(C#CBr)c(F)cc2F)C[C@@H]1O ; strain: 07/1 (TK-) ; cell line: HEL ; result: >50 µM
O=c1[nH]c(=O)n([C@H]2C[C@H](O)[C@@H](COP3(=O)OCc4ccc5ccccc5c4O3)O2)cc1/C=C/Br ; strain: OKA ; cell line: HELF ; result: 0.011 µg/mL
Cc1c(Br)cc(Br)c2ncc(CSCc3cccc(C(F)(F)F)c3)n12 ; strain: YS (TK+) ; cell line: HEL ; result: >5 µg/mL
CCCCCCCCCCc1cc2cn([C@H]3C[C@H](O)[C@@H](CO)O3)c(=O)nc2o1 ; strain: 07/1 (TK-) ; cell line: HEL ; result: >50 µM
N#Cc1cc([C@H]2C[C@H](O)[C@@H](CO)O2)c(F)cc1F ; strain: (TK+)/OKA ; cell line: HEL ; result: >200 µM
FC(F)(F)Oc1ccc(-c2cc3ccccn3c2)cc1 ; strain: G-31 ; cell line: MRC-5 ; result: 5 µM
CC1(C)[C@@H](CCO)C[C@H]1n1cnc2c(=O)[nH]cnc21 ; strain: (TK-)/YS/R ; cell line: HEL ; result: >50 µg/mL